Pooled drug test results. Numbers come from NIAID ChemDB, via PubChem.

Shared fields: whole-cell or culture tests; organism: Aspergillus niger

A number after MIC or MFC names an inhibition level or a share of isolates. Blank or dashed fields: not listed here. Lines come from different laboratories, so protocols vary.

compound	method	strain or isolate	endpoint	value
O=C(CSc1nnc(-c2ccc3ncccc3c2)o1)Nc1nc2ccc(F)cc2s1	agar		MIC	12.5 µg/mL
Cc1ccc(-c2nc3ccccc3c(=O)n2-c2ccc(C(=O)NN3C(=O)/C(=C/c4ccc([N+](=O)[O-])cc4)SC3c3ccc(F)cc3)cc2)cc1		MTCC 282	MIC100	500 µg/mL
COc1ccc(-c2n[nH]c(COc3nc(C(F)(F)F)nc4ccccc34)n2)cc1OC		MTCC 282	MIC100	12.5 µg/mL
COc1cc(/C=N/O)ccc1OP1(Oc2ccc(/C=N/OC(=O)c3cccs3)cc2OC)=NP(Oc2ccc(/C=N/O)cc2OC)(Oc2ccc(/C=N/OC(=O)c3cccs3)cc2OC)=NP(Oc2ccc(/C=N/OC(=O)c3cccs3)cc2OC)(Oc2ccc(/C=N/OC(=O)c3cccs3)cc2OC)=N1	agar diffusion / agar		MIC	75 µg/mL
O=C(CSc1nnc(-c2ccc3ncccc3c2)o1)Nc1nc2ccc(Cl)cc2s1	agar		MIC	50 µg/mL
Cc1ccc(-c2nc3ccccc3c(=O)n2-c2ccc(C(=O)NN3C(=O)/C(=C/c4ccccc4Cl)SC3c3ccc(F)cc3)cc2)cc1		MTCC 282	MIC100	100 µg/mL
Clc1ccc(-c2n[nH]c(COc3ncnc4ccccc34)n2)cc1		MTCC 282	MIC100	12.5 µg/mL
Cc1ccc(-c2nc3ccccc3c(=O)n2-c2ccc(C(=O)NN3C(=O)/C(=C/c4ccc(Cl)cc4)SC3c3ccc(F)cc3)cc2)cc1		MTCC 282	MIC100	500 µg/mL
FC(F)(F)c1nc(OCc2nc(-c3ccc(Cl)cc3)n[nH]2)c2ccccc2n1		MTCC 282	MIC100	12.5 µg/mL
CC(C)CC1NC(=O)CC(CCCCCCCCC(C)O)OC(=O)C(CC(C)C)NC(=O)C(CC(C)C)NC(=O)C(CC(C)C)NC(=O)C(C(C)C)NC(=O)C(CC(=O)O)NC(=O)C(CC(C)C)NC1=O	visual reading	ATCC 16404	MFC	>32 µg/mL
Brc1ccc(-c2n[nH]c(COc3ncnc4ccccc34)n2)cc1		MTCC 282	MIC100	25 µg/mL
O=C(CSc1nnc(-c2ccc3ncccc3c2)o1)Nc1ccccc1	agar		MIC	100 µg/mL
Cc1ccc(-c2nc3ccccc3c(=O)n2-c2ccc(C(=O)NN3C(=O)/C(=C/c4ccccc4)SC3c3ccc(F)cc3)cc2)cc1		MTCC 282	MIC100	1000 µg/mL
COc1cc(/C=N/OC(=O)CCl)ccc1OP1(Oc2ccc(/C=N/OC(=O)CCl)cc2OC)=NP(Oc2ccc(/C=N/OC(=O)CCl)cc2OC)(Oc2ccc(/C=N/OC(=O)CCl)cc2OC)=NP(Oc2ccc(/C=N/OC(=O)CCl)cc2OC)(Oc2ccc(/C=N/OC(=O)CCl)cc2OC)=N1	agar diffusion / agar		MIC	>100 µg/mL
Cc1ccc(-c2nc3ccccc3c(=O)n2-c2ccc(C(=O)NN3C(=O)/C(=C/c4c(Cl)cccc4Cl)SC3c3ccc(F)cc3)cc2)cc1		MTCC 282	MIC100	500 µg/mL
COc1cc(-c2n[nH]c(COc3ncnc4ccccc34)n2)cc(OC)c1OC		MTCC 282	MIC100	6.25 µg/mL
Cc1ccc(-c2nc3ccccc3c(=O)n2-c2ccc(C(=O)NN3C(=O)CSC3c3ccc(F)cc3)cc2)cc1		MTCC 282	MIC100	500 µg/mL
CC(=O)Nc1ccc(NC(=O)CSc2nnc(-c3ccc4ncccc4c3)o2)cc1	agar		MIC	12.5 µg/mL
OC(Cn1cncn1)(Cn1cncn1)c1ccc(F)cc1F		KCTC 1231	MIC	1.6 µg/mL
COc1cc(-c2n[nH]c(COc3nc(C)nc4ccccc34)n2)cc(OC)c1OC		MTCC 282	MIC100	12.5 µg/mL
N#Cc1ccc(NC(=O)CSc2nnc(-c3ccc4ncccc4c3)o2)cc1	agar		MIC	50 µg/mL
Cc1ccc(-c2nc3ccccc3c(=O)n2-c2ccc(C(=O)NN3C(=O)/C(=C/c4cccc(Br)c4)SC3c3ccc(F)cc3)cc2)cc1		MTCC 282	MIC100	100 µg/mL
CO/N=C/c1ccc(OP2(Oc3ccc(/C=N/OC)cc3OC)=NP(Oc3ccc(/C=N/OC)cc3OC)(Oc3ccc(/C=N/OC)cc3OC)=NP(Oc3ccc(/C=N/OC)cc3OC)(Oc3ccc(/C=N/OC)cc3OC)=N2)c(OC)c1	agar diffusion / agar		MIC	>100 µg/mL
C[C@H]1[C@H](O)[C@@H](C)/C=C/C=C/C=C/C=C/C=C/C=C/C=C/[C@H](O[C@@H]2O[C@H](C)[C@@H](O)[C@H](N)[C@@H]2O)C[C@@H]2O[C@](O)(C[C@@H](O)C[C@@H](O)CC[C@H](O)[C@@H](O)C[C@@H](O)CC(=O)O[C@H]1C)C[C@H](O)[C@H]2C(=O)O	broth dilution / resazurin	ATCC 16404	MIC	0.98 µg/mL
O=C(CSc1nnc(-c2ccc3ncccc3c2)o1)Nc1nc2ccccc2s1	agar		MIC	100 µg/mL
C=CCO/N=C/c1ccc(OP2(Oc3ccc(/C=N/OC=C)cc3OC)=NP(Oc3ccc(/C=N/OCC=C)cc3OC)(Oc3ccc(/C=N/OCC=C)cc3OC)=NP(Oc3ccc(/C=N/OCC=C)cc3OC)(Oc3ccc(/C=N/OCC=C)cc3OC)=N2)c(OC)c1	agar diffusion / agar		MIC	>100 µg/mL

For reference, 2 entries again:

compound,method,strain or isolate,endpoint,value
COc1cc(-c2n[nH]c(COc3ncnc4ccccc34)n2)cc(OC)c1OC,,MTCC 282,MIC100,6.25 µg/mL
C=CCO/N=C/c1ccc(OP2(Oc3ccc(/C=N/OC=C)cc3OC)=NP(Oc3ccc(/C=N/OCC=C)cc3OC)(Oc3ccc(/C=N/OCC=C)cc3OC)=NP(Oc3ccc(/C=N/OCC=C)cc3OC)(Oc3ccc(/C=N/OCC=C)cc3OC)=N2)c(OC)c1,agar diffusion / agar,,MIC,>100 µg/mL